Measured values from several laboratories, pooled; numbers as filed in NIAID ChemDB.

Shared fields: target-level tests; organism: HIV-1; protein: gp120; read by: ELISA; measure: IC50

ICn: concentration for n% inhibition.

SMILES	result
COc1ccc(C[C@H]2COC(=O)[C@]2(O)Cc2ccc(O)c(O)c2)cc1OC	~50 µM
CC[C@H](C)/C=C(C)/C=C/C1=CC2=C(Cl)C(=O)[C@@]3(C)OC(=O)C(C(C)=O)=C3C2=CO1	>300 µM
O=C(O)c1cc[c]([Sb](=[O])([OH])[OH])cc1[N+](=O)[O-]	1.75 µM
O=C(C=Cc1ccc(O)c(O)c1)O[C@@H]1C[C@](O)(C(=O)O)C[C@@H](O)[C@H]1O	>400 µg/mL
CN1C(=O)C(c2cc(Cl)c(O)c(Cl)c2)NC(=O)[C@@H]2NC(=O)C(c3cc(Cl)c(O)c(Cl)c3)NC(=O)[C@H](NC(=O)C(=O)c3cc(Cl)c(O)c(Cl)c3)Cc3c[nH]c4c(cccc34)-c3cc2cc(c3O)Oc2ccc(cc2)CC1C(=O)NC(C(=O)O)c1ccc(O)cc1	2 µM
CC[C@H](C)/C=C(C)/C=C/C1=CC2=CC(=O)[C@](C)(O)[C@H](O)[C@H]2CO1	>300 µM
O=C1c2c(O)cc(O[C@@H]3C[C@@H](O)[C@H](O)[C@@H](CO)O3)cc2O[C@H](c2ccc(O)c(O)c2)[C@H]1O	<50 µg/mL
CC[C@H](C)/C=C(C)/C=C/C1=CC2=CC(=O)[C@]3(C)OC(=O)[C@@H](C(C)=O)[C@@H]3C2=CO1	114 µM
CCN(CCCl)CC1CC(c2ccccc2)(c2ccccc2)C(=O)O1	35 µM
CC[C@H](C)/C=C(C)/C=C/C1=CC2=C(Cl)C(=O)[C@](C)(O)[C@H](O)[C@H]2CO1	48 µM
O=C1c2c(O)cc(O)cc2O[C@H](c2ccc(O)cc2)[C@H]1O	<20 µg/mL
CC[C@H](C)/C=C(C)/C=C/C1=CC2=C(Cl)C(=O)[C@]3(C)OC(=O)[C@@H](C(C)=O)[C@@H]3C2=CO1	6.6 µM
COC(=O)C(=O)N1CC[C@@H](/C=C/C(Cc2ccccc2)C(=O)OCc2ccccc2)C1	>1000 µg/mL
O=C1C[C@@H](c2cc(O)ccc2O)Oc2cc(O[C@@H]3C[C@@H](O)[C@H](O)[C@@H](CO)O3)cc(O)c21	<16 µg/mL
CC[C@H](C)/C=C(C)/C=C/C1=CC2=C(Cl)C(=O)[C@](C)(O)[C@H](O)C2=CO1	14.6 µM

For reference, 2 entries again:

{"SMILES": "CCN(CCCl)CC1CC(c2ccccc2)(c2ccccc2)C(=O)O1", "result": "35 µM"}
{"SMILES": "COC(=O)C(=O)N1CC[C@@H](/C=C/C(Cc2ccccc2)C(=O)OCc2ccccc2)C1", "result": ">1000 µg/mL"}

Conditions beyond the fields shown may differ between rows.